Patent US9676793B2, “Co-crystals of 5-amino-2-oxothiazolo[4,5-d]pyrimidin-3(2H)-yl-5-hydroxymethyl tetrahydrofuran-3-yl acetate and methods for preparing and using the same” (Hoffmann-La Roche Inc., priority 2014, dated 2017)

Experiment: Salt factor (S)

Row | Substance | Salt factor
1 | Fumaric acid | 1.18
2 | Malonic acid | 1.16
